Results as given in patent publication US20230001027A1, “METAL CHELATING AGENTS AND METHODS OF USING THE SAME” (priority 2019, published 2023).

Conditions: PET, t=0 hr, 3 month old and 26 month old rats

uptake in the heart, associated venous flow (jugular veins and vena cava) and kidneys: high initial uptake
Substance: ^89Zr-DOTA-alendronate
